Paper PMC9239272 (mBio, 2022)

Test system: SARS2 M^pro
Test: Luciferase-based gain-of-signal reporter (Src-Mpro-Tat-Luc), wild-type
Type: cell-based, SARS-CoV-2
Conditions: for Mean S:B (signal to background): 293T cells, normalized to DMSO; for increase over background luminescence: background normalized to 1

SMILES: CC(C)C[C@H](NC(=O)OCc1ccccc1)C(=O)N[C@@H](C[C@@H]1CCNC1=O)C(O)S(=O)(=O)O (some centres unmarked)
- Mean S:B (signal to background) (0.05 µM): 1.3
- Mean S:B (signal to background) (0.10 µM): 1.7
- Mean S:B (signal to background) (0.20 µM): 2.2
- increase over background luminescence (200 nM compound): 2 fold
- Mean S:B (signal to background) (0.39 µM): 3.4
- Mean S:B (signal to background) (0.78 µM): 5.0
- Mean S:B (signal to background) (1.56 µM): 7.7
- Mean S:B (signal to background) (3.13 µM): 11.3
- Mean S:B (signal to background) (6.25 µM): 16.4
- Mean S:B (signal to background) (12.5 µM): 22.8
- Mean S:B (signal to background) (25 µM): 31.7
- Mean S:B (signal to background) (50 µM): 48.2
- increase over background luminescence (100 μM compound): 100 fold
- Mean S:B (signal to background) (100 µM): 99.7
